Compound potency records, mixed from different reports. Data source: NIAID ChemDB in PubChem.

Common to all: growth or infection tests; organism: Human cytomegalovirus; method: cytopathic effect; measure: EC50

Lines come from different laboratories, so protocols vary. a–b is a range or a potency band. ECn is the concentration giving n% inhibition of infection, replication or growth.

{"structure": "CCCCCC#Cc1cn(S(=O)(=O)c2ccc(C)cc2)c(=O)[nH]c1=O", "cell line": "HEL", "strain": "DAVIS", "result": "51 µM"}
{"structure": "OC[C@H]1O[C@@H](c2cc(I)c(F)cc2F)C[C@@H]1O", "cell line": "HEL", "strain": "DAVIS", "result": ">200 µM"}
{"structure": "C[C@@H](NC(=O)C1(Cc2ccccc2)CCN1C(=O)OCc1ccccc1)C(N)=O", "cell line": "HEL", "strain": "AD169", "result": ">400 µM"}
{"structure": "CCCCCCCCC#Cc1cn(S(=O)(=O)c2ccc(C)cc2)c(=O)[nH]c1=O", "cell line": "HEL", "strain": "DAVIS", "result": ">16 µM"}
{"structure": "CN(C)c1cccc2c(S(=O)(=O)Nc3ccc(NC(=O)C(C)(C)CO)cc3)cccc12", "cell line": "Human embryonic lung fibroblasts", "strain": "DAVIS", "result": "0.3 µM"}
{"structure": "CC(N=[N+]=[N-])c1cn([C@H]2C[C@H](O)[C@@H](CO)O2)c(=O)[nH]c1=O", "cell line": "HFF", "strain": "AD169", "result": ">125 µM"}
{"structure": "Nc1ccn([C@H]2C[C@@H](O)[C@H](CO)O2)c(=O)n1", "cell line": "MRC-5", "strain": "AD169", "result": ">10 µM"}
{"structure": "OC[C@H]1O[C@@H](c2cc(F)c(F)cc2F)C[C@@H]1O", "cell line": "HEL", "strain": "AD169", "result": ">200 µM"}
{"structure": "CC(C)(C)C(=O)Nc1ccc(NS(=O)(=O)c2cccc3ccccc23)cc1", "cell line": "Human embryonic lung fibroblasts", "strain": "DAVIS", "result": "0.29 µM"}
{"structure": "CCCCc1cc2cnc(=O)[nH]c2o1", "cell line": "HEL", "strain": "AD169", "result": ">400 µM"}
{"structure": "S=c1nc[nH]c2nc[nH]c12", "cell line": "WI-38", "result": "320 µg/mL"}
{"structure": "CC(N)c1cn([C@H]2C[C@H](O)[C@@H](CO)O2)c(=O)[nH]c1=O", "cell line": "HFF", "strain": "AD169", "result": "5.9 µM"}
{"structure": "OC[C@H]1O[C@H](c2cc(I)c(F)cc2F)C[C@@H]1O", "cell line": "HEL", "strain": "DAVIS", "result": "125 µM"}
{"structure": "CC1=C[C@H](n2ccc(N)nc2=O)C[C@@]1(CO)c1ccccc1", "cell line": "HEL", "strain": "AD169", "result": ">100 µg/mL"}
{"structure": "Nc1nc2c(ncn2COC(CO)CO)c(=O)[nH]1", "strain": "DAVIS", "result": "0.7 µg/mL"}
{"structure": "CC(C)(CF)C(=O)Nc1ccc(NS(=O)(=O)c2cccc3ccccc23)cc1", "cell line": "Human embryonic lung fibroblasts", "strain": "DAVIS", "result": "0.098 µM"}
{"structure": "Cc1c(S(=O)(=O)c2ccc(Cl)cc2)c(NC(=O)C(F)(F)F)n(Cc2ccccc2)c1C", "cell line": "HEL", "strain": "DAVIS", "result": "1.9 µg/mL"}
{"structure": "CC1=CC(CO)(CO)C[C@H]1n1cnc2c(N)ncnc21", "cell line": "HEL", "strain": "AD169", "result": ">100 µg/mL"}
{"structure": "Nc1ncnc2c1ncn2[C@@H]1C=C(CO)[C@@H](O)[C@H]1O", "cell line": "HEL", "strain": "DAVIS", "result": "0.4 µg/mL"}
{"structure": "Nc1cc(OC[C@H](CO)OCP(=O)(O)O)nc(N)n1", "cell line": "HEL", "strain": "AD169", "result": "130 µM"}
{"structure": "Nc1nc(=S)c2ncn([C@@H]3O[C@H](CO)[C@@H](O)[C@H]3O)c2[nH]1", "cell line": "WI-38", "result": "10 µg/mL"}
{"structure": "CCCCCCCCCCC#Cc1c[nH]c(=O)[nH]c1=O", "cell line": "HEL", "strain": "DAVIS", "result": ">80 µM"}
{"structure": "CN(C)c1cccc2c(S(=O)(=O)Nc3ccc(NC(=O)C(C)(C)C=O)cc3)cccc12", "cell line": "Human embryonic lung fibroblasts", "strain": "DAVIS", "result": "0.29 µM"}
{"structure": "Nc1cc(OCCOCP(=O)(O)O)nc(N)n1", "cell line": "HEL", "strain": "DAVIS", "result": ">190 µM"}
{"structure": "Nc1nc2c(ncn2C=C2CC2CO)c(=O)[nH]1", "cell line": "VERO", "result": "1–10 µM"}
{"structure": "C[C@@H](NC(=O)C1(Cc2ccccc2)CCN1C(=O)OCc1ccccc1)C(=O)OC(C)(C)C", "cell line": "HEL", "strain": "DAVIS", "result": "3.2 µM"}
{"structure": "Nc1cc([C@H]2C[C@H](O)[C@@H](CO)O2)c(F)cc1F", "cell line": "HEL", "strain": "AD169", "result": ">200 µM"}
{"structure": "CCCSc1ncnc2nc[nH]c12", "cell line": "WI-38", "result": "<32 µg/mL"}
{"structure": "COC(=O)[C@H](C)NP(=O)(OCC1C/C1=C/n1cnc2c(N)ncnc21)Oc1ccccc1", "cell line": "HFF", "strain": "AD169", "result": "1.3 µM"}
{"structure": "CC(C)(C)[Si](C)(C)OC[C@H]1O[C@@H](n2ccc3nc(CN)cn3c2=O)[C@H](O[Si](C)(C)C(C)(C)C)[C@@H]1O[Si](C)(C)C(C)(C)C", "cell line": "HEL", "strain": "AD169", "result": "7.3 µM"}
{"structure": "CCCCCCCCC#Cc1c[nH]c(=O)[nH]c1=O", "cell line": "HEL", "strain": "AD169", "result": ">400 µM"}
{"structure": "Cn1c(N)nc2nc[nH]c2c1=S", "cell line": "WI-38", "result": "<32 µg/mL"}
{"structure": "N#CC1C(c2ccc(Cl)cc2)Nc2ccccc2S1(=O)=O", "cell line": "HEL", "strain": "AD169", "result": "4.6 µg/mL"}
{"structure": "Cc1cc([C@@H]2C[C@H](O)[C@@H](CO)O2)c(F)cc1F", "cell line": "HEL", "strain": "AD169", "result": ">200 µM"}
{"structure": "NC[C@H]1C[C@@H](n2cnc3c(N)ncnc32)[C@H](O)[C@@H]1O", "cell line": "HFF", "result": "17.5 µg/mL"}
{"structure": "CNc1cccc2c(S(=O)(=O)Nc3ccc(NC(=O)C(C)(C)CO)cc3)cccc12", "cell line": "Human embryonic lung fibroblasts", "strain": "DAVIS", "result": "0.25 µM"}
{"structure": "Cc1cc([C@@H]2C[C@H](O)[C@@H](CO)O2)c(F)cc1Cl", "cell line": "HEL", "strain": "AD169", "result": "92 µM"}
{"structure": "Nc1nc(N)c(Cl)c(OCCOCP(=O)(O)O)n1", "cell line": "HEL", "strain": "DAVIS", "result": ">600 µM"}
{"structure": "OC[C@H]1O[C@@H](c2cc(C(F)(F)F)c(F)cc2F)C[C@@H]1O", "cell line": "HEL", "strain": "AD169", "result": ">200 µM"}
{"structure": "COC(=O)C(C)NP(=O)(OC[C@@H]1C/C1=C\\n1cc(N)c(=O)[nH]c1=O)Oc1ccccc1", "cell line": "HFF", "strain": "AD169", "result": ">60 µM"}
{"structure": "O=c1ccn([C@H]2C[C@H](O)[C@]3(CO)C[C@H]23)c(=O)[nH]1", "cell line": "HFF", "result": ">100 µg/mL"}
{"structure": "Nc1nc2c(ncn2CCC(CO)CO)c(=O)[nH]1", "cell line": "VERO", "result": "10–100 µM"}
{"structure": "N#CC1C(c2ccc(Cl)cc2)Nc2c(ccn2Cc2ccccc2)S1(=O)=O", "cell line": "HEL", "strain": "AD169", "result": ">5 µg/mL"}
{"structure": "CC(C)(CO)C(=O)Nc1ccc(NS(=O)(=O)c2cccc3c(N)cccc23)cc1", "cell line": "Human embryonic lung fibroblasts", "strain": "DAVIS", "result": "0.71 µM"}
{"structure": "Nc1cn(/C=C2/C[C@H]2CO)c(=O)[nH]c1=O", "cell line": "HFF", "strain": "AD169", "result": "3.4 µM"}
{"structure": "NC1=NC2C(C=CN2CC(CO)CCO)C(=O)N1", "cell line": "VERO", "result": "10–100 µM"}
{"structure": "Nc1ncnc2c1ncn2[C@H]1C[C@@H](O)[C@H](CO)O1", "cell line": "MRC-5", "strain": "AD169", "result": ">1000 µM"}
{"structure": "Nc1cn(C=C2C[C@H]2CO)c(=O)[nH]c1=O", "cell line": "HFF", "strain": "AD169", "result": ">518 µM"}
{"structure": "CCCCC#Cc1c[nH]c(=O)[nH]c1=O", "cell line": "HEL", "strain": "AD169", "result": ">400 µM"}

A second listing of 5 rows from above:

structure,cell line,strain,result
OC[C@H]1O[C@@H](c2cc(I)c(F)cc2F)C[C@@H]1O,HEL,DAVIS,>200 µM
Nc1cn(C=C2C[C@H]2CO)c(=O)[nH]c1=O,HFF,AD169,>518 µM
OC[C@H]1O[C@@H](c2cc(F)c(F)cc2F)C[C@@H]1O,HEL,AD169,>200 µM
CCCCC#Cc1c[nH]c(=O)[nH]c1=O,HEL,AD169,>400 µM
CC(C)(CF)C(=O)Nc1ccc(NS(=O)(=O)c2cccc3ccccc23)cc1,Human embryonic lung fibroblasts,DAVIS,0.098 µM